Results of unrelated studies side by side (data: NIAID ChemDB).

All rows: whole-cell or culture tests; species: Candida albicans; measure: MIC

Neighbouring rows are from separate reports.

| structure | strain or isolate | result |
|---|---|---|
| CCC(C)CC(C)CCCCCCCCC(=O)NC1C[C@H](O)[C@@H](O)NC(=O)[C@@H]2[C@@H](O)[C@@H](C)CN2C(=O)[C@H]([C@H](O)CC(N)=O)NC(=O)[C@H](C(O)[C@H](O)c2ccc(O)cc2)NC(=O)[C@@H]2C[C@@H](O)CN2C(=O)[C@H]([C@@H](C)O)NC1=O | MY1783 | 0.5 µg/mL |
| C[C@@H](N1CNc2cc(Cl)ccc2C1=O)[C@](O)(Cn1cncn1)c1ccc(F)cc1F | 76 strains | 0.15 µg/mL |
| CCCCCCCCCCCCCCCC(=O)N[C@H]1CCCNC(=O)C2C[C@H](N)CN2C(=O)C(C(C)O)NC(=O)C(CCc2ccc(O)cc2)NC(=O)C2C[C@@H](O)CN2C(=O)C(C(C)O)NC1=O | ATCC 62376 | 0.78 µg/mL |
| CCCCCOc1ccc(-c2ccc(-c3ccc(C(=O)N[C@H]4CCCNC(=O)[C@@H]5C[C@H](NC(=O)c6ccccc6)CN5C(=O)[C@H]([C@@H](C)O)NC(=O)[C@H](CCc5ccc(O)cc5)NC(=O)[C@@H]5C[C@@H](O)CN5C(=O)[C@H]([C@@H](C)O)NC4=O)cc3)cc2)cc1 | ATCC 62376 | 6.25 µg/mL |
| C[C@@H](n1cnc2cc(N3CCN(C)CC3)ccc2c1=O)[C@](O)(Cn1cncn1)c1ccc(F)cc1F | 60 strains | 1.25 µg/mL |
| Cc1c(S(=O)(=O)c2ccccc2)[n+](=O)c2ccccc2n1[O-] | Clinical isolate 3 | 62.5 µg/mL |
| CCCCCCCOc1ccc(N2CCN(c3ccc(C(=O)N[C@H]4CCCNC(=O)[C@@H]5C[C@H](N)CN5C(=O)[C@H]([C@@H](C)O)NC(=O)[C@H](CCc5ccc(N)cc5)NC(=O)[C@@H]5CCCN5C(=O)[C@H]([C@@H](C)O)NC4=O)cc3)CC2)cc1 | ATCC 38247 | 0.78 µg/mL |
| COc1ccc(N2CCN(c3ccc(C(=O)N[C@H]4CCCNC(=O)C5C[C@H](N)CN5C(=O)C(C(C)O)NC(=O)C(CCc5ccc(O)cc5)NC(=O)C5C[C@@H](O)CN5C(=O)C(C(C)O)NC4=O)cc3)CC2)cc1 | ATCC 10231 | 3.12 µg/mL |
| CCCCCCCOc1ccc(N2CCN(c3ccc(C(=O)N[C@H]4CCCNC(=O)[C@@H]5C[C@H](N)CN5C(=O)[C@H]([C@@H](C)O)NC(=O)[C@H](CCc5ccc(C)cc5)NC(=O)[C@@H]5CCCN5C(=O)[C@H]([C@@H](C)O)NC4=O)cc3)CC2)cc1 | ATCC 62376 | 3.12 µg/mL |
| CCCCCOc1ccc(-c2ccc(-c3ccc(C(=O)N[C@H]4CCCNC(=O)C5C[C@H](NS(C)(=O)=O)CN5C(=O)C(C(C)O)NC(=O)C(CCc5ccc(O)cc5)NC(=O)C5C[C@@H](O)CN5C(=O)C(C(C)O)NC4=O)cc3)cc2)cc1 | ATCC 62376 | 0.2 µg/mL |
| CCOc1cc2c(cc1F)n([O-])c(C)c(Cl)[n+]2=O | Clinical isolate 19 | 15.6 µg/mL |
| CCCCCOc1ccc(-c2ccc(-c3ccc(C(=O)N[C@H]4CCCNC(=O)C5CCN5C(=O)C(C(C)O)NC(=O)C(CCc5ccc(O)cc5)NC(=O)C5C[C@@H](O)CN5C(=O)C(C(C)O)NC4=O)cc3)cc2)cc1 | ATCC 10231 | 0.78 µg/mL |
| Cc1c(O)cccc1C(=O)N[C@@H](CSc1ccccc1)[C@H](O)CN1C[C@H]2CCCC[C@H]2C[C@H]1C(=O)NC(C)(C)C | I106A | 64 µg/mL |
| Cc1cccc2c(=O)n([C@H](C)[C@](O)(Cn3cncn3)c3ccc(F)cc3F)cnc12 | 406 strains | 0.07 µg/mL |
| CCCCCOc1ccc(-c2ccc(-c3ccc(C(=O)N[C@H]4CCCNC(=O)[C@@H]5C[C@H](N)CN5C(=O)[C@H](CO)NC(=O)C(CCc5ccc(O)cc5)NC(=O)[C@@H]5C[C@@H](O)CN5C(=O)[C@H]([C@@H](C)O)NC4=O)cc3)cc2)cc1 | ATCC CCH442 | 0.1 µg/mL |
| CCCCCOc1ccc(-c2ccc(-c3ccc(C(=O)N[C@H]4CCCNC(=O)[C@@H]5C[C@H](N)CN5C(=O)[C@H](CC)NC(=O)C(CCc5ccc(O)cc5)NC(=O)[C@@H]5C[C@@H](O)CN5C(=O)[C@H]([C@@H](C)O)NC4=O)cc3)cc2)cc1 | ATCC 38247 | 0.39 µg/mL |
| CC(/C=C/C=C(\C)C(O)C(C)C(=O)O[C@H]1C[C@@H](C)C=C2C=C[C@]3(C)O[C@@H](O)CC(=O)[C@]3(C)[C@H]21)=C\C=C\C(=O)O | CCH442 | 0.78 µg/mL |
| CCCCCOc1ccc(-c2ccc(-c3ccc(C(=O)N[C@H]4CCCNC(=O)C5C[C@H](N)CN5C(=O)C(CN)NC(=O)C(CCc5ccc(O)cc5)NC(=O)C5C[C@@H](O)CN5C(=O)C(C(C)O)NC4=O)cc3)cc2)cc1 | ATCC CCH442 | 0.39 µg/mL |
| CCCCCCCCCCCCCCCCCC(=O)NC1CC(O)C(O)NC(=O)C2C(O)C(C)CN2C(=O)C(C(C)O)NC(=O)C(C(O)C(O)c2ccc(O)cc2)NC(=O)C2CC(O)CN2C(=O)C(C(C)O)NC1=O | MY1208 | 0.5 µg/mL |
| O[C@](Cn1cncn1)(Cn1cnc(/C=C/c2ccc(OCC(F)(F)C(F)F)cc2)n1)c1ccc(F)cc1F | Isolate I1-28 | 2 µg/mL |
| Cc1c(Sc2ccccc2)[n+](=O)c2cc(C(F)(F)F)ccc2n1[O-] | Clinical isolate 24 | 15.6 µg/mL |
| C[C@@H](O)[C@@H]1NC(=O)[C@H](CCc2ccc(O)cc2)NC(=O)[C@@H]2C[C@@H](O)CN2C(=O)[C@H]([C@@H](C)O)NC(=O)[C@@H](NCC2CCCCC2)CCCNC(=O)[C@@H]2C[C@H](N)CN2C1=O | ATCC 38247 | 0.2 µg/mL |
| Cc1cccc2ncn([C@H](C)[C@](O)(Cn3cncn3)c3ccc(F)cc3F)c(=O)c12 | 60 strains | 0.15 µg/mL |
| CCCCCCCOc1ccc(N2CCN(c3ccc(C(=O)N[C@H]4CCCNC(=O)[C@@H]5C[C@H](N)CN5C(=O)[C@H]([C@@H](C)O)NC(=O)[C@H](CCc5ccc(CO)cc5)NC(=O)[C@@H]5CCCN5C(=O)[C@H]([C@@H](C)O)NC4=O)cc3)CC2)cc1 | ATCC 38247 | 3.12 µg/mL |
| Cc1c(Cl)[n+](=O)c2cc(Cl)ccc2n1[O-] | Clinical isolate 13 | 7.8 µg/mL |
| CCCCCOc1ccc(-c2ccc(-c3ccc(C(=O)N[C@H]4CCCNC(=O)C5C[C@H](N)CN5C(=O)C(C(C)C)NC(=O)C(CCc5ccc(O)cc5)NC(=O)C5C[C@@H](O)CN5C(=O)C(C(C)O)NC4=O)cc3)cc2)cc1 | ATCC 10231 | 6.25 µg/mL |
| CCOc1cc2c(cc1F)n([O-])c(C)c(S(=O)(=O)c1ccccc1)[n+]2=O | Clinical isolate 3 | 15.6 µg/mL |
| C[C@@H](n1cnc2cc(S(=O)(=O)c3ccccc3)ccc2c1=O)[C@](O)(Cn1cncn1)c1ccc(F)cc1F | 406 strains | ≤0.03 µg/mL |
| CCCCCOc1ccc(-c2ccc(-c3ccc(C(=O)N[C@H]4CCCNC(=O)[C@@H]5C[C@H](N)CN5C(=O)[C@H](CCCN)NC(=O)C(CCc5ccc(O)cc5)NC(=O)[C@@H]5C[C@@H](O)CN5C(=O)[C@H]([C@@H](C)O)NC4=O)cc3)cc2)cc1 | ATCC CCH442 | 0.39 µg/mL |
| CCCCCOc1ccc(-c2ccc(-c3ccc(C(=O)N[C@H]4CCCNC(=O)[C@@H]5C[C@H](N)CN5C(=O)[C@@H]([C@H](C)O)NC(=O)C(CCc5ccc(O)cc5)NC(=O)[C@@H]5C[C@@H](O)CN5C(=O)[C@H]([C@@H](C)O)NC4=O)cc3)cc2)cc1 | ATCC 38247 | 6.25 µg/mL |

Repeating the final 2 entries:

structure,strain or isolate,result
CCCCCOc1ccc(-c2ccc(-c3ccc(C(=O)N[C@H]4CCCNC(=O)[C@@H]5C[C@H](N)CN5C(=O)[C@H](CCCN)NC(=O)C(CCc5ccc(O)cc5)NC(=O)[C@@H]5C[C@@H](O)CN5C(=O)[C@H]([C@@H](C)O)NC4=O)cc3)cc2)cc1,ATCC CCH442,0.39 µg/mL
CCCCCOc1ccc(-c2ccc(-c3ccc(C(=O)N[C@H]4CCCNC(=O)[C@@H]5C[C@H](N)CN5C(=O)[C@@H]([C@H](C)O)NC(=O)C(CCc5ccc(O)cc5)NC(=O)[C@@H]5C[C@@H](O)CN5C(=O)[C@H]([C@@H](C)O)NC4=O)cc3)cc2)cc1,ATCC 38247,6.25 µg/mL